Source: patent publication US20250177537A1, “AN ANTIBIOTIC, METHOD OF PREPARATION AND METHOD OF TREATMENT THEREOF” (National Taiwan University, priority 2023, published 2025)
Bridge positions count the residues as written; N and C are the ends. Square brackets hold non-standard residues; d marks the D form. Peptide text beside a SMILES is read from it. * marks the point of attachment. d(aThr) = C[C@@H](O)[C@@H](N)C(=O)O; Palmitoyl = CCCCCCCCCCCCCCCC(=O)*; dPip = O=C(O)[C@H]1CCCCN1; hSer = N[C@@H](CCO)C(=O)O; Dap = NC[C@H](N)C(=O)O

test system: S. aureus; assay: MIC with or without C10P supplement (C10P antagonism); details: C10P ~10-fold molar excess relative to peptide

SMILES	bacterial growth inhibition in the presence of excess C10P
CCCCCCCCCCCCCCCC(=O)N[C@@H](CO)C(=O)N[C@H]1CNC(=O)[C@@H]2CCCN2C(=O)[C@H]([C@@H](C)CC)NC(=O)[C@@H]([C@@H](C)O)NC(=O)CNC(=O)[C@H](CO)NC(=O)CNC(=O)[C@H](CC(=O)O)NC(=O)CNC(=O)[C@H]2CCCCN2C1=O [B1] (Palmitoyl-S[Dap][dPip]GDGSG[d(aThr)]IP; lactam 2-C)	None of them were able to inhibit bacterial growth
CCCCCCCCCCCCCCCC(=O)N[C@@H](CO)C(=O)N[C@H]1CNC(=O)[C@@H]2CCCN2C(=O)[C@H]([C@@H](C)CC)NC(=O)[C@@H]([C@@H](C)O)NC(=O)CNC(=O)[C@H](CCO)NC(=O)CNC(=O)[C@H](CC(=O)O)NC(=O)CNC(=O)[C@H]2CCCCN2C1=O [B3, Ser-Dap-Pip-Gly-Asp-Gly-Hse-Gly-Thr-Ile-Pro] (Palmitoyl-S[Dap][dPip]GDG[hSer]G[d(aThr)]IP; lactam 2-C)	None of them were able to inhibit bacterial growth
CCCCCCCCCCCCCCCC(=O)N[C@@H](CCO)C(=O)N[C@H]1CNC(=O)[C@@H]2CCCN2C(=O)[C@H]([C@@H](C)CC)NC(=O)[C@@H]([C@@H](C)O)NC(=O)CNC(=O)[C@H](CO)NC(=O)CNC(=O)[C@H](CC(=O)O)NC(=O)CNC(=O)[C@H]2CCCCN2C1=O [B4] (Palmitoyl-[hSer][Dap][dPip]GDGSG[d(aThr)]IP; lactam 2-C)	None of them were able to inhibit bacterial growth
